Results reported in ChEMBL document CHEMBL1782021, “Synthesis of 2-aziridinyl phosphonates by modified Gabriel-Cromwell reaction and their antibacterial activities” (2011).
Several values for one entry are separate records, joined by “and”; a condition that tells them apart may be missing. Equal entries are not always repeated.

Key:
Brevundimonas = experiment: Antibacterial activity against Brevundimonas sp. isolate Fs30 after 24 hrs by disc diffusion assay
Bacillus subtilis = experiment: Antibacterial activity against Bacillus subtilis after 24 hrs by disc diffusion assay
Escherichia coli = experiment: Antibacterial activity against Escherichia coli DH5[alpha] after 24 hrs by disc diffusion assay
Gordonia sp. = experiment: Antibacterial activity against Gordonia sp. isolate Fs48 after 24 hrs by disc diffusion assay
Kocuria = experiment: Antibacterial activity against Kocuria sp. isolate Fs24 after 24 hrs by disc diffusion assay

Row | SMILES | inhibition zone (IZ) (Brevundimonas) | inhibition zone (IZ) (Bacillus subtilis) | inhibition zone (IZ) (Escherichia coli) | inhibition zone (IZ) (Gordonia sp.) | inhibition zone (IZ) (Kocuria)
1 | CCOP(=O)(OCC)C1CN1 (stereo not given) | 12.3 mm | 11.3 mm | 11.3 mm | 11.7 mm | 12.3 mm
2 | CCOP(=O)(OCC)C1CN1Cc1ccco1 (stereo not given) | 15 mm | 10.3 mm | 13.3 mm | 14.7 mm | 14.7 mm
3 | CCOP(=O)(OCC)C1CN1C(C)C (stereo not given) | 16 mm | 19.3 mm | 9 mm | 15.7 mm | 19 mm
4 | CCOP(=O)(OCC)C1CN1Cc1ccccc1 (stereo not given) | 13.7 mm | 10 mm | 8 mm | 13 mm | 18 mm
5 | CCOP(=O)(OCC)C1CN1C1CCCCC1 (stereo not given) | 14.3 mm | 9.66 mm | 10 mm | 23.3 mm | 18.3 mm
6 | CCOP(=O)(OCC)C1CN1[C@H](CC)c1ccccc1 (stereo not given in full) | 13.7 mm and 13.3 mm | 10 mm and 11.7 mm | 13 mm and 12 mm | 13.3 mm and 16.3 mm | 12 mm and 19 mm
7 | CCOP(=O)(OCC)C1CN1[C@H](CC)CO (stereo not given in full) | 20 mm and 13 mm | 11 mm and 17 mm | 10.7 mm and 20 mm | 11 mm and 15.3 mm | 25 mm and 18.7 mm
